Results on one substance are retold here after patent US20100210473A1.

The target of the assay is phage-fragment TJ7.15 (WNWFDIT) (HIV-1 (HxB2 or SF162 gp160 fragment library)). The assay is described as follows: flow cytometry, yeast-displayed scFv with different TJ7.15 phage preparations.

Regarding Z13e1 scFv displayed on yeast, the % double positive cells was found to be 40%.
